Experimental data reported in the supplement of paper PMC9931576.
Human monoclonal antibodies against the spike receptor-binding domain (heavy:light variable regions). IC50 against pseudoviruses bearing the spike of naturally observed variants; lower = stronger; >10 µg/ml means not reached at the top dose. No active / inactive call. The stated detection limit is 0.0005 µg/ml; values near or below 0.001 µg/ml lie at the floor of the assay.

Tests used:
Assay in all cases: pseudovirus neutralization IC50; higher = weaker neutralization
[1] = molecular target: SARS-CoV-2 Omicron BA.1 spike pseudovirus
Experimental: (§1)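 Single-round VSV luciferase pseudovirus mixed with antibody dilutions for 1 h and put on Huh-7 cells for about a day; IC50 from the dose curve.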

[2] = molecular target: SARS-CoV-2 Omicron BA.2 spike pseudovirus
Experimental: as §1

[3] = molecular target: SARS-CoV-2 Omicron BA.2.75 spike pseudovirus
Experimental: as §1

[4] = molecular target: SARS-CoV-2 Omicron BA.2.75.2 spike pseudovirus
Experimental: as §1

[5] = molecular target: SARS-CoV-2 Omicron BA.5 spike pseudovirus
Experimental: as §1

[6] = molecular target: SARS-CoV-2 Omicron BM.1.1.1 spike pseudovirus
Experimental: as §1

[7] = molecular target: SARS-CoV-2 Omicron BQ.1.1 spike pseudovirus
Experimental: as §1

[8] = molecular target: SARS-CoV-2 Omicron BR.2 spike pseudovirus
Experimental: as §1

[9] = molecular target: SARS-CoV-2 Omicron CA.1 spike pseudovirus
Experimental: as §1

[10] = molecular target: SARS-CoV-2 Omicron XBB spike pseudovirus
Experimental: as §1

[11] = molecular target: SARS-CoV-2 early D614G spike pseudovirus
Experimental: as §1

B1: BD58-0402 (protein)
chain 1: QVQLVQSGAEVKKPGSSVKVSCKASGGTFSYYAISWVRQAPGQGLEWMGGIIPIFVTANYAQKFQGRVTITADESTSTAYMELSSLRSEDTAIYFCARQFDYGDSYFDYWGQGTLVTVSS
chain 2: EIVMTQSPATLSVSPGERATLSCRASQSVSSNLAWYQQKPGQAPRLLIYGASTRATGIPARFNGSGSGTEFTLTISSLQSEDFAVYYCQQYNSWPITFGQGTRLEIK
B1 was tested, and the “pseudovirus neutralization IC50” value [1] was 0.0133 µg/mL, the “pseudovirus neutralization IC50” value [2] was 0.0041 µg/mL and the “pseudovirus neutralization IC50” value [3] was 0.346 µg/mL. The “pseudovirus neutralization IC50” value [4] was 1.81 µg/mL, the “pseudovirus neutralization IC50” value [5] was over 10 µg/mL and the “pseudovirus neutralization IC50” value [6] was over 10 µg/mL. For the same binder, the “pseudovirus neutralization IC50” value [7] was over 10 µg/mL, the “pseudovirus neutralization IC50” value [8] was over 10 µg/mL and the “pseudovirus neutralization IC50” value [9] was over 10 µg/mL. The “pseudovirus neutralization IC50” value [10] was over 10 µg/mL and the “pseudovirus neutralization IC50” value [11] was over 10 µg/mL.

B2: BD56-408 (protein)
chain 1: QVHLEQSGAEVKKPGSSVKVSCTGSGDTFNKYAVSWVRQAPGQGLEWMGGVIPVIGIPNYTQKFQDRLTISADESTSTVYMELSSLRSGDTAVYFCAGGGSVVVAADFYLEYWGRGTLVTVSS
chain 2: DIQMTQSPSTLSAYVGDRVTITCRASQSIGSWLAWYQQKPGRVPKLLINQASTLGSGVPSRFSGSGSGTEFTLTISSLQPDDFATYYCQQYKTYPTFGQGTRLDIK
In the case of B2, the “pseudovirus neutralization IC50” value [1] is reported as 0.295 µg/mL, the “pseudovirus neutralization IC50” value [2] is reported as 0.254 µg/mL and the “pseudovirus neutralization IC50” value [3] is reported as 1.06 µg/mL. For the same binder, the “pseudovirus neutralization IC50” value [5] was over 10 µg/mL, the “pseudovirus neutralization IC50” value [7] was over 10 µg/mL and the “pseudovirus neutralization IC50” value [10] was over 10 µg/mL. For the same binder, the “pseudovirus neutralization IC50” value [11] was 0.00126 µg/mL.

B3: BD56-420 (protein)
chain 1: EVQVVESGGGLVQPGGSLRLSCAASGFSFSRYEMNWVRQAPGKGLEWVSYISSSGDIIYYADSVKGRFTVSRDNAKKSLFLQMNSLRAGDTAVYYCARDGLPGFGEILDYWGRGTLVTVSS
chain 2: SYVLTQPPSVSVAPGKTAWITCGGNNTGAKSVYWYQQKPGQAPVLVIYYDSDRPSGIPERFSGSNSGNTATLTVSRVEAGDEADYYCQVWDSGSDHMVFGGGTKLTVL
B3 was tested, and the “pseudovirus neutralization IC50” value [1] was 0.503 µg/mL, the “pseudovirus neutralization IC50” value [2] was 1.36 µg/mL and the “pseudovirus neutralization IC50” value [3] was 1 µg/mL. The “pseudovirus neutralization IC50” value [5] was over 10 µg/mL, the “pseudovirus neutralization IC50” value [7] was over 10 µg/mL and the “pseudovirus neutralization IC50” value [10] was over 10 µg/mL. The “pseudovirus neutralization IC50” value [11] was 0.13 µg/mL.

B4: BD56-430 (protein)
chain 1: QVQLVESGGGGVQPGRSLRLSCAASGFTFRSYAMHWVRQAPGKGLEWVALIWNDGSKEYYVDSVKGRFTISRDNSKNTLYLQMNSLRAEDTAVYYCAREGIAVGSGGDDAFDIWGQGTMVTVSS
chain 2: DIHMTQSPSSLSASVGDRVTITCRASQSVSKFLNWYQQKPGRAPKLLIYAASSLQSGVPSRFSGGESGTDFILSISSLQPEDFATYYCQQTYSPPYSFGQGTKLEI
For B4, the “pseudovirus neutralization IC50” value [1] was 0.0828 µg/mL, the “pseudovirus neutralization IC50” value [2] was 0.0144 µg/mL and the “pseudovirus neutralization IC50” value [3] was 0.102 µg/mL. The “pseudovirus neutralization IC50” value [5] was over 10 µg/mL, the “pseudovirus neutralization IC50” value [7] was over 10 µg/mL and the “pseudovirus neutralization IC50” value [10] was 0.566 µg/mL. The “pseudovirus neutralization IC50” value [11] was 0.00243 µg/mL.

B5: BD56-322 (protein)
chain 1: QVQLVESGGGVVQPGRSLRLSCAASGFTFSSYAMHWVRQAPGKGLEWVAVISYDGSYKYYVDSVKGRFTISRDNSKNTLYLQMNSLRAEDTAVYYCARGGGYNSPITIVRGVIVFDGFDIWGQGTMVTVSS
chain 2: AIQLTQSPSSLSASVGDRVTITCRASQGISSALAWYQQKPGKAPKLLIYDASSLESGVPSRFSGSGSGTDFTLTISSLQPEDFATYYCQQLNNYPLTFGGGTKVEIK
In the case of B5, the “pseudovirus neutralization IC50” value [1] is reported as 0.303 µg/mL, the “pseudovirus neutralization IC50” value [2] is reported as 0.31 µg/mL and the “pseudovirus neutralization IC50” value [3] is reported as 0.523 µg/mL. The “pseudovirus neutralization IC50” value [5] was over 10 µg/mL, the “pseudovirus neutralization IC50” value [7] was over 10 µg/mL and the “pseudovirus neutralization IC50” value [10] was over 10 µg/mL. The “pseudovirus neutralization IC50” value [11] was over 10 µg/mL.

B6: BD56-425 (protein)
chain 1: EVQLLESGGGLIQPGGSLRLSCAASGFMFTTDAMSWVRQAPGKGLEWVSYISGSGTKTYYADSVRGRFTISRDNSKNTLYLQMNSLRADDTAIYYCAKDVGLLWFGDLPANWFDPWGQGTLVTVSS
chain 2: DIQMTQSPSSLSASVGDRVTITCRASQGISNSLAWYQQKPREAPKLLLYAASTLESGVPSRFSGSGSGTDFTLTISSLQAEDFATYYCQQYYSPPPRTFGQGTRLEIK
B6 was tested, and the “pseudovirus neutralization IC50” value [1] was 2.2 µg/mL, the “pseudovirus neutralization IC50” value [2] was 1.59 µg/mL and the “pseudovirus neutralization IC50” value [3] was 0.00642 µg/mL. For the same binder, the “pseudovirus neutralization IC50” value [5] was over 10 µg/mL, the “pseudovirus neutralization IC50” value [7] was over 10 µg/mL and the “pseudovirus neutralization IC50” value [10] was over 10 µg/mL. For the same binder, the “pseudovirus neutralization IC50” value [11] was 0.00385 µg/mL.

B7: BD56-410 (protein)
chain 1: EVQVVESGGGLVQPGGSLRLSCAASGFSFSRFDMIWVRRAPGKGLEWVSYIGGSSSVTYYADSVKGRFTISRDNAMKSVYLQMNSLRAEDTAVYYCARDGLPGVGEMFDTWGQGTLVSVSS
chain 2: SYVLTQPPSVSVAPGQTAWITCGGNKIGSKSVQWYHQKPGQAPMLVIYYDTDRPSGIPERFSGSNSGNTATLAISRVEAGDEADYYCQVWDSDSDHVVFGGGTKLTVL
B7 was tested, and the “pseudovirus neutralization IC50” value [1] was 0.2 µg/mL, the “pseudovirus neutralization IC50” value [2] was 0.188 µg/mL and the “pseudovirus neutralization IC50” value [3] was 0.207 µg/mL. For the same binder, the “pseudovirus neutralization IC50” value [5] was over 10 µg/mL, the “pseudovirus neutralization IC50” value [7] was over 10 µg/mL and the “pseudovirus neutralization IC50” value [10] was 1.9 µg/mL. The “pseudovirus neutralization IC50” value [11] was 0.143 µg/mL.

B8: DH1160 (protein)
chain 1: QVQLVQSGGEVKKPGALLRVSCKASGDTSTNHAISWVRQAPGQGLEWMAWINVYNGRTNYAPHLQGRVTLTTDTATSTAYMQLSSLRSDDTAVYYCARWIHRDFDWLPYGMFMDVWGQGTTVTVSS
chain 2: QSALTQPPSASGSPGQSVTISCTGTSIDLGVYKYVSWYQHHPGKAPKLIIYEVSKRPSGVPDRFSGSKSGNTASLTVSGLQAEDEADYYCTSYEGDNTLVFGGGTKLTVL
B8 was tested, and the “pseudovirus neutralization IC50” value [1] was over 10 µg/mL, the “pseudovirus neutralization IC50” value [2] was over 10 µg/mL and the “pseudovirus neutralization IC50” value [3] was over 10 µg/mL. The “pseudovirus neutralization IC50” value [5] was over 10 µg/mL, the “pseudovirus neutralization IC50” value [7] was over 10 µg/mL and the “pseudovirus neutralization IC50” value [10] was over 10 µg/mL. The “pseudovirus neutralization IC50” value [11] was 0.59 µg/mL.

B9: BD56-300 (protein)
chain 1: EVQLVESGGGLIQPGGSLRLSCAASGFTVSSNYMNWVRQAPGKGLEWVSLIYSGGTTYYADSVKGRFTISRDNSKNTLYLQMNSLRAEDTAVYYCARDQAVFGMDVWGQGTTVTVSS
chain 2: SYVLTQPPSVSVAPGKTARITCGGNNIGSNSVHWYQQKPGQAPVLVVYDDSDRPSGIPERFSGSNSGNTATLTISRVEAGDEADYYCQVWDSSSDQPVVFGGGTKLTVL
For B9, the “pseudovirus neutralization IC50” value [1] was 0.00107 µg/mL, the “pseudovirus neutralization IC50” value [2] was 0.00125 µg/mL and the “pseudovirus neutralization IC50” value [3] was 7.53 µg/mL. The “pseudovirus neutralization IC50” value [5] was 0.0282 µg/mL, the “pseudovirus neutralization IC50” value [7] was over 10 µg/mL and the “pseudovirus neutralization IC50” value [10] was 6.79 µg/mL. The “pseudovirus neutralization IC50” value [11] was over 10 µg/mL.

B10: BD-369 (protein)
chain 1: EVQLVESGGGLVQPGGSLRLSCAASGITVSSNYMTWVRQAPGKGLEWVSLIYSGGSTYYADSVKGRFTISRDNSKNTLHLQMNSLRGEDTAVYYCARDLVAFGMDVWGQGTTVTVSS
chain 2: IQLTQSPSSLSASVGDRVTITCRASQGISSYLAWYQQKPGKAPKLLIYAASTLQGGVPSRFSGSGSGTDFTLTISSLQSEDSATYYCQQLNSDTPTFGPGTKVEIK
In the case of B10, the “pseudovirus neutralization IC50” value [1] is reported as 5.25 µg/mL, the “pseudovirus neutralization IC50” value [2] is reported as 5.05 µg/mL and the “pseudovirus neutralization IC50” value [3] is reported as over 10 µg/mL. The “pseudovirus neutralization IC50” value [5] was 8.34 µg/mL and the “pseudovirus neutralization IC50” value [11] was 0.013 µg/mL.

B11: BD56-426 (protein)
chain 1: QVQLEQSGAEVKKPGSSVKVSCKASGGTFSSYAISWVRQAPGQGLEWMGGIIPILGITYYAQKLKGRVTITAGEGTLTAYMELSSLRSEDTAVYYCATQPSTNPASYSYYYYMDVWGKGTTVTVSS
chain 2: QSALTQPASVSGSPGQSITISCTGTSSDVGSYNLVSWYHQHPGKAPKVIIYDVSKRPSGVSNRFSGSKSGNTASLTISGLQAEDEADYYCCSYAGSSTWVFGGGTKLTVL
With B11 the “pseudovirus neutralization IC50” value [1] was 0.0121 µg/mL, the “pseudovirus neutralization IC50” value [2] was 0.0236 µg/mL and the “pseudovirus neutralization IC50” value [3] was 0.018 µg/mL. The “pseudovirus neutralization IC50” value [5] was over 10 µg/mL, the “pseudovirus neutralization IC50” value [7] was over 10 µg/mL and the “pseudovirus neutralization IC50” value [10] was over 10 µg/mL. The “pseudovirus neutralization IC50” value [11] was 0.001 µg/mL.

B12: BD56-207 (protein)
chain 1: QITLKESGPTLVKPTQTLTLTCTFSGFSLTTSKVGVAWIRQPPGKALEWLALIYWDDDKRYSPSLKSRLTIAADPSKNQVVLTMTNMDPVDTATYYCAHINLDGYAAFHNDFDYWGQGILVTVSS
chain 2: QSVLTQPPSVSEAPRQRVTISCSGSSSNIGHNAVNWYQQLPGKAPKLLIYYDYLLPSGVSDRFSGSRSGTSASLAISGLQSEDEADYYCASWDDRLNGPVFGGGTKLTVL
In the case of B12, the “pseudovirus neutralization IC50” value [1] is reported as over 10 µg/mL, the “pseudovirus neutralization IC50” value [2] is reported as over 10 µg/mL and the “pseudovirus neutralization IC50” value [3] is reported as over 10 µg/mL. The “pseudovirus neutralization IC50” value [4] was over 10 µg/mL, the “pseudovirus neutralization IC50” value [5] was over 10 µg/mL and the “pseudovirus neutralization IC50” value [6] was over 10 µg/mL. For the same binder, the “pseudovirus neutralization IC50” value [7] was over 10 µg/mL, the “pseudovirus neutralization IC50” value [8] was over 10 µg/mL and the “pseudovirus neutralization IC50” value [9] was over 10 µg/mL. For the same binder, the “pseudovirus neutralization IC50” value [10] was over 10 µg/mL and the “pseudovirus neutralization IC50” value [11] was over 10 µg/mL.
